Compound potency records, mixed from different reports. Data source: NIAID ChemDB in PubChem.

All rows: tests in culture; agent: Mycobacterium tuberculosis

Blank or dashed fields: not listed here. ECn: concentration that inhibits the pathogen or its effect by n%. MIC50, MIC90 and the like: level of inhibition, or share of isolates inhibited. a–b is a range or a potency band. MIC bound: limit read from a one-dose screen. Percent inhibition refers to the dose given; in toxicity tests it is the harm to the cells. "inactive" is the filed call at that dose; no cut-off is given. Lines come from different laboratories, so protocols vary.

smiles,strain,mutations,conditions,cells,endpoint,dose,method,value
CC(=O)NCCCC[C@@H](OC(C)=O)[C@@H](COC(C)=O)OC(C)=O,H37Rv,,,,inhibition,6.25 µg/mL,agar,100%
COc1ccc(CN=C2NC(=O)/C(=C/c3ccccc3Cl)N2)cc1,H37Rv,,,,inhibition,12.5 µg/mL,,8%
O=C(CSc1nnc(-c2ccccn2)s1)N/N=c1/scc(-c2cccc(Cl)c2)n1-c1ccccc1,Clinical isolate 190,,,,MIC,,,>80 µg/mL
NNC(=O)c1ccncc1,Isolate 2227,,,,MIC,,,>4 µg/mL
CN(N=O)C1=NC2(CCCCC2)P(=O)(NNc2ncccn2)O1,H37Rv,,,,MIC bound,,BACTEC,>12.5 µg/mL
NNC(=O)c1ccncc1,PR455,,,,MIC,,,0.08 µg/mL
COc1c(C(C)=O)cc([N+](=O)[O-])c2ncccc12,H37Rv,,,,MIC,,,>6.25 µg/mL
O=C(CSc1nnc(-c2ccccn2)s1)N/N=c1/scc(-c2ccccc2Cl)n1-c1ccccc1,Clinical isolate 180,,,,MIC,,,20 µg/mL
CC(C)CCCC(C)C1CCC2C3CCC4CC(NC(=O)CNCCCSC(C)C)CCC4(C)C3CCC12C,H37Rv,,,VERO,MIC,,,3.13 µg/mL
O=C1c2cc(Cl)ccc2OP(=O)(c2ccccc2)N1c1ccc(C(F)(F)F)cc1,My 331/88,,7 d,,MIC,,,0.5 µM
Cc1[nH]c(N)nc(=S)c1CCCNc1ccc(C(=O)NC(CCC(=O)O)C(=O)O)cc1,H37Rv,,,,MIC bound,,BACTEC,>12.5 µg/mL
N#C/C(=C\c1cccc(C#N)c1)n1nnc2ccccc21,ATCC 27294,,,,MIC50,,,20 µM
O=C1NC(=NCc2ccccc2)N/C1=C\c1ccccc1Cl,H37Rv,,,,inhibition,12.5 µg/mL,,20%
O=c1c2cc(Br)ccc2oc2ccc(Br)cc12,H37Rv,,,,MIC bound,,BACTEC,>12.5 µg/mL
O=C(CSc1nnc(-c2ccccn2)s1)N/N=c1/scc(-c2ccccc2)n1-c1ccc(Cl)cc1,Clinical isolate 331,,,,MIC,,,40 µg/mL
N#C/C(=C\c1ccccc1C(F)(F)F)n1nnc2ccccc21,ATCC 27294,,,,MIC90,,,65.8 µM
CC(C)CC(NC(=O)OC(C)(C)C)C(=O)CNC(=O)CCC(=O)O,H37Rv,,,,inhibition,6.25 µg/mL,resazurin,-47%
CC(=O)OC[C@@H](OC(C)=O)[C@H](/C=C/CC(C)[N+](=O)[O-])OC(C)=O,H37Rv,,,,inhibition,6.25 µg/mL,agar,100%
O=C1CSc2ncccc2N1c1ccc([N+](=O)[O-])cn1,H37Rv,,,,inhibition,12.5 µg/mL,BACTEC,0%
CO[C@H]1/C=C/O[C@@]2(C)Oc3c(C)c(O)c4c(O)c(c5c(c4c3C2=O)NC2(CCN(CC(C)C)CC2)N=5)=NC(=O)/C(C)=C\C=C\[C@H](C)[C@H](O)[C@@H](C)[C@@H](O)[C@@H](C)[C@H](OC(C)=O)[C@@H]1C,30 isolates,,,,MIC50,,,0.063 µg/mL
COc1ccc(NC(=S)NNC(=O)c2ccncc2)cc1,WT,,,,MIC,,,10.31 µM
O=[N+]([O-])c1cn2c(n1)OC[C@@H](OCc1ccc(OC(F)(F)F)cc1)C2,H37Rv,,,,MIC,,,0.4–0.8 µM
O=C(CSc1nnc(-c2ccccn2)s1)N/N=c1/scc(-c2ccc(Cl)cc2)n1-c1ccccc1,H37Rv,,,,MIC,,,40 µg/mL
Cc1ccc(NC(=O)c2ccncc2)cc1C,H37Rv,,,,inhibition,6.25 µg/mL,resazurin,16%
CCOC(=O)c1c(C)c(-c2ccccc2)n(CC(=O)N/N=C/c2cn(C(C)=O)c3ccccc23)c1C,H37Rv,,,,EC50,,BACTEC,>6.25 µg/mL
Cc1cc2c(cc1C)-c1c(oc3cc(C)c(C)cc13)-c1ccccc1C(=O)O2,H37Rv,,,,MIC,,BACTEC,≥12.5 µg/mL
CCC(C)C(=O)c1cn(-c2ccccc2)nn1,H37Rv,,,,inhibition,12.5 µg/mL,,78%
N#C/C(=C\c1ccc(Cl)cc1Cl)n1nnc2ccccc21,ATCC 27294,,,,MIC90,,,>100 µM
CC(C)c1cc(C(C)C)c2cccc([N+](=O)[O-])c2n1,H37Rv,,,,inhibition,6.25 µg/mL,,22%
N#C/C(=C\c1ccc(C(F)(F)F)cc1C(F)(F)F)n1nnc2ccccc21,ATCC 27294,,,,MIC50,,,9.3 µM
O=C(CSc1nnc(-c2ccccn2)s1)N/N=c1/scc(-c2cccc([N+](=O)[O-])c2)n1-c1ccccc1,Clinical isolate 331,,,,MIC,,,>80 µg/mL
Cc1ccccc1NC(=S)NNC(=O)c1ccncc1,WT,,,,MIC,,,5.44 µM
O=C1NNCc2c1oc1ccccc21,H37Rv,,,,MIC bound,,BACTEC,>12.5 µg/mL
CCC1Cn2cc([N+](=O)[O-])nc2O1,H37Rv,,,,MIC,,,0.4 µM
CC(=O)NC[C@H]1CN(c2ccc(N3CCOCC3)c(F)c2)C(=O)O1,Strain 361,,,,MIC,,,0.5 µg/mL
O=C(CSc1nnc(-c2ccccn2)s1)N/N=c1/scc(-c2ccccc2)n1-c1cccc(Br)c1,Clinical isolate 190,,,,MIC,,,>80 µg/mL
CCOC(=O)c1cc(-c2ccc(OC)cc2)n(CC(=O)N/N=C/c2ccc([N+](=O)[O-])o2)c1C,H37Rv,,,,EC50,,BACTEC,>6.25 µg/mL
O=C1c2cc(Br)ccc2OP(=O)(c2ccccc2)N1c1ccc(C(F)(F)F)cc1,My 331/88,,14 d,,MIC,,,1 µM
COc1cccc2c(NN)cc(C)nc12,H37Rv,,,VERO,MIC,,,>12.5 µg/mL
CN1c2ccccc2CCC1CCc1ccc2c(c1)OCO2,MT5,,,,MIC,,,>100 µg/mL
O=[N+]([O-])c1cccc2cccnc12,H37Rv,,,,MIC,,,>6.25 µg/mL
O=C1NC(Nc2ccccc2)=N/C1=C\c1ccc(Cl)cc1Cl,H37Rv,,,,MIC,,,>6.25 µg/mL
CCOC(=O)c1cn(-c2ccc(Cl)cc2)nn1,H37Rv,,,,inhibition,12.5 µg/mL,,0%
CCN1CC(C(=O)NC(C)C(=O)O)Cc2ccccc21,H37Rv,,,,inhibition,12.5 µg/mL,BACTEC,2%
CO[C@H]1/C=C/O[C@@]2(C)Oc3c(C)c(O)c4c(=O)c(c5oc6cc(N7CCN(CC(C)C)CC7)cc(=O)c6nc5c4c3=C2O)NC(=O)/C(C)=C\C=C\[C@H](C)[C@H](O)[C@@H](C)[C@@H](O)[C@@H](C)[C@H](OC(C)=O)[C@@H]1C,33 (rifampicin-resistant),,,,MIC,,,0.125 µg/mL
CCOC(=O)c1cc(-c2ccccc2)n(CCC(=O)NN)c1C,H37Rv,,,,EC50,,BACTEC,>6.25 µg/mL
COc1ccc(CCC2CCc3ccccc3N2C)cc1OC,MT10,,,,MIC,,,>322 µg/mL
CCCCOc1ccc2nccc(NN)c2c1,H37Rv,,,VERO,MIC,,,12.5 µg/mL
NNC(=O)CNc1ccccc1Br,H37Rv,,,,inhibition,12.5 µg/mL,BACTEC,21%
CC(=O)OC[C@@H](OC(C)=O)[C@H](/C=C/C=C/[N+](=O)[O-])OC(C)=O,H37Rv,,,,inhibition,12.5 µg/mL,agar,inactive
CCOC(=O)c1c(C)c(-c2ccccc2)n(CC(=O)N/N=C/c2ccc([N+](=O)[O-])o2)c1C,H37Rv,,,,EC50,,BACTEC,>6.25 µg/mL
CC(=O)Nc1cccc2cccnc12,H37Rv,,,,inhibition,6.25 µg/mL,,0%
O=C(CSc1nnc(-c2ccccn2)s1)N/N=c1/scc(-c2ccccc2)n1-c1ccc([N+](=O)[O-])cc1,Clinical isolate 180,,,,MIC,,,20 µg/mL
O=C1c2cc(Cl)ccc2OP(=O)(c2ccccc2)N1c1ccc(Cl)c(Cl)c1,My 331/88,,7 d,,MIC,,,2 µM
CCOC(=O)c1cc(-c2cccc([N+](=O)[O-])c2)n(CCC(=O)NN)c1C,H37Rv,,,,EC50,,BACTEC,>6.25 µg/mL
O=C1NC(Nc2ccc(Cl)cc2)=N/C1=C\c1ccc(Cl)cc1Cl,H37Rv,,,,MIC,,,<12.5 µg/mL
C=C(CC(=O)Nc1nc(C)c(C(=O)OC)s1)C(=O)O,H37Rv,,,,inhibition,6.25 µg/mL,resazurin,12%
O=C1NC(=Nc2ccccc2Cl)N/C1=C\c1ccccc1Cl,H37Rv,,,,MIC,,,>12.5 µg/mL
N#C/C(=C/c1ccccc1I)n1nnc2ccccc21,ATCC 27294,,,,MIC90,,,28.2 µM
O=C(Nc1ccccc1)c1ccccc1OP(=O)(Oc1ccccc1)c1ccccc1,My 331/88,,14 d,,MIC,,,250 µM
CC(=O)OC[C@@H](OC(C)=O)[C@H](/C=C/C(O)C(C)[N+](=O)[O-])OC(C)=O,H37Rv,,,,inhibition,25 µg/mL,agar,inactive
O=C1c2ccccc2C(=O)c2sc(Nc3cc(Cl)ccc3Cl)nc21,H37Rv,,,VERO,MIC,,BACTEC,1.6 µg/mL
Cc1ccc(NC(=S)NNC(=O)c2ccncc2)cc1,INH resistant,,,,MIC,,,10.88 µM
CCOC(=O)/C=C/c1ccc(OC)cc1,BTB09-126,,,,MIC,,resazurin,485 µM
C=C1C(=O)N2c3ccccc3C(C)(C)C2(S)C(=O)N1C,H37Rv,,,,inhibition,6.25 µg/mL,resazurin,99%
O=C(Nc1cccc2cccnc12)C(F)(F)F,H37Rv,,,,inhibition,6.25 µg/mL,,0%
O=C(CSc1nnc(-c2ccccn2)s1)N/N=c1/scc(-c2ccccc2Br)n1-c1ccccc1,Clinical isolate 331,,,,MIC,,,>80 µg/mL
Cc1cc(C)c(C(=O)NN)[nH]1,H37Rv,,,,EC50,,BACTEC,>6.25 µg/mL
Cc1ccc(NC(=S)NNC(=O)c2ccncc2)c(C)c1,INH resistant,,,,MIC,,,2.59 µM
O=C(Nc1ccc(C(F)(F)F)cc1)c1cc(Cl)ccc1OP(=O)(c1ccccc1)c1ccccc1,My 331/88,,14 d,,MIC,,,2 µM
CCOC(=O)c1cc(-c2ccc(-c3ccccc3)cc2)n(CCC(=O)NN)c1C,H37Rv,,,,EC50,,BACTEC,>6.25 µg/mL
COc1ccc2ccc3oc(=O)c(C)cc3c2c1,H37Rv,,,,MIC bound,,BACTEC,>6.25 µg/mL
COc1ccc2c(N/N=C/c3ccc(OC)c4ccccc34)cc(C)nc2c1,H37Rv,,,VERO,inhibition,12.5 µg/mL,,99%
NNC(=O)c1ccncc1,HUG.MB.3649,inhA mutant isoniazid resistant,,,MIC,,resazurin / absorbance,0.08 µg/mL
Cc1ccc(NC(=O)CNCC(C)C)cc1Cl,H37Rv,,,,inhibition,12.5 µg/mL,BACTEC,11%
O=C(Nc1ccccc1)c1ccccc1OP(=O)(OCc1ccccc1)OCc1ccccc1,My 331/88,,14 d,,MIC,,,250 µM
O=C(c1cn(-c2ccccc2)nn1)c1ccc(Cl)cc1Cl,H37Rv,,,,MIC,,,>12.5 µg/mL
CC1(C)C2CCC13CS(=O)(=O)N(C(=O)C1CC=CCC1)C3C2,H37Rv,,,,inhibition,12.5 µg/mL,BACTEC,0%
CC(=O)NCCCC[C@H](OC(C)=O)[C@@H](COC(C)=O)OC(C)=O,H37Rv,,,,inhibition,12.5 µg/mL,agar,100%
N#Cc1c(Cl)c2cc([N+](=O)[O-])ccc2n2c1nc1ccccc12,H37Rv,,,,inhibition,6.25 µg/mL,resazurin,10%
CCOC(=O)c1cn(NC(N)=O)nn1,H37Rv,,,,MIC,,,>12.5 µg/mL
COC(=O)CC(C(C(C)=O)C(=O)OCc1ccccc1)N1C(=O)OC(c2ccccc2)C1c1ccccc1,H37Rv,,,,inhibition,12.5 µg/mL,BACTEC,0%
COc1c(N2CCNC(C)C2)c(F)cc2c(=O)c(C(=O)O)cn(C3CC3)c12,Strain 7,,,,MIC,,,0.125 µg/mL
CCCCOc1ccc2nccc(N/N=C/c3ccc(OC)c4ccccc34)c2c1,H37Rv,,,VERO,inhibition,12.5 µg/mL,,100%
CN(C)C1=c2c(=O)n(C)c(=O)n(C)c2=NC2C=CC=CN12,H37Rv,,,,inhibition,12.5 µg/mL,BACTEC,5%
COc1ccc(/C=N/NC(=O)c2c(C)c[nH]c2C)cc1,H37Rv,,,,inhibition,6.25 µg/mL,BACTEC,0%
CCOc1ccc2c(N/N=C/c3c(OC)ccc4ccccc34)cc(C)nc2c1,H37Rv,,,VERO,inhibition,12.5 µg/mL,,100%

12 of the rows above, restated:

smiles | strain | mutations | conditions | cells | endpoint | dose | method | value
CC1(C)C2CCC13CS(=O)(=O)N(C(=O)C1CC=CCC1)C3C2 | H37Rv |  |  |  | inhibition | 12.5 µg/mL | BACTEC | 0%
Cc1ccc(NC(=O)CNCC(C)C)cc1Cl | H37Rv |  |  |  | inhibition | 12.5 µg/mL | BACTEC | 11%
COc1ccc2c(N/N=C/c3ccc(OC)c4ccccc34)cc(C)nc2c1 | H37Rv |  |  | VERO | inhibition | 12.5 µg/mL |  | 99%
O=C(Nc1cccc2cccnc12)C(F)(F)F | H37Rv |  |  |  | inhibition | 6.25 µg/mL |  | 0%
CCN1CC(C(=O)NC(C)C(=O)O)Cc2ccccc21 | H37Rv |  |  |  | inhibition | 12.5 µg/mL | BACTEC | 2%
CC(C)CC(NC(=O)OC(C)(C)C)C(=O)CNC(=O)CCC(=O)O | H37Rv |  |  |  | inhibition | 6.25 µg/mL | resazurin | -47%
COc1ccc(CN=C2NC(=O)/C(=C/c3ccccc3Cl)N2)cc1 | H37Rv |  |  |  | inhibition | 12.5 µg/mL |  | 8%
C=C1C(=O)N2c3ccccc3C(C)(C)C2(S)C(=O)N1C | H37Rv |  |  |  | inhibition | 6.25 µg/mL | resazurin | 99%
O=C1c2ccccc2C(=O)c2sc(Nc3cc(Cl)ccc3Cl)nc21 | H37Rv |  |  | VERO | MIC |  | BACTEC | 1.6 µg/mL
CCOC(=O)c1cc(-c2ccc(OC)cc2)n(CC(=O)N/N=C/c2ccc([N+](=O)[O-])o2)c1C | H37Rv |  |  |  | EC50 |  | BACTEC | >6.25 µg/mL
NNC(=O)c1ccncc1 | PR455 |  |  |  | MIC |  |  | 0.08 µg/mL
COc1c(N2CCNC(C)C2)c(F)cc2c(=O)c(C(=O)O)cn(C3CC3)c12 | Strain 7 |  |  |  | MIC |  |  | 0.125 µg/mL